Pooled drug test results. Numbers come from NIAID ChemDB, via PubChem.

All rows: whole-cell or culture tests; species: Candida glabrata; read-out: MIC

Conditions beyond the fields shown may differ between rows.

structure,strain,value
CCOC(=O)C1C(=O)C=C(c2ccc(F)cc2)CC1c1ccc(C2CC(c3ccc(F)cc3)=CC(=O)C2C(=O)OCC)cc1,Clinical isolate,12.5 µg/mL
O/N=C\c1ccccc1,,4130 µM
CCOC(=O)C1C(=O)C=C(c2ccc(C)cc2)CC1c1ccc(C2CC(c3ccc(C)cc3)=CC(=O)C2C(=O)OCC)cc1,Clinical isolate,100 µg/mL
COC(=O)[C@H]1[C@@H]2C[C@@H](O[C@@H]3O[C@H](C)[C@@H](O)[C@H](N)[C@@H]3O)/C=C/C=C/C=C/C=C/C=C/C=C/C=C/[C@H](C)[C@@H](O)[C@H](C)[C@H](C)OC(=O)C[C@H](O)C[C@H](O)[C@@H](O)CC[C@H](O)C[C@H](O)C[C@](O)(C[C@@H]1O)O2,ATCC 90030,0.24 µM
O=[N+]([O-])c1cccc(/C=N\O)c1,,3010 µM
CC[C@@]1(O)C(=O)OCc2c1cc1n(c2=O)Cc2cc3c(CN(C)C)c(O)ccc3nc2-1,ATCC 90030,>100 µM
COc1ccc(/C=N/O)cc1,,6620 µM
Cc1ccc(C2CC(c3ccc4ccccc4c3)=Cc3[nH][nH]c(=O)c32)cc1,,100 µg/mL
COC(=O)c1ccc(C[C@H](C(=O)OC)[C@@H](O)C(=O)OC)cc1,DSM 11226,>4 µg/mL
C/C(=N/O)C(Cl)(Cl)Cl,,3220 µM
O=c1[nH][nH]c2c1C(c1ccc(Cl)cc1)CC(c1ccc3ccccc3c1)=C2,,25 µg/mL
CCC(C)CC(C)CCCCCCCCC(=O)N[C@H]1C[C@@H](O)[C@H](NCCN)NC(=O)[C@@H]2[C@@H](O)CCN2C(=O)[C@H]([C@H](O)CCN)NC(=O)[C@H]([C@H](O)[C@@H](O)c2ccc(O)cc2)NC(=O)[C@@H]2C[C@@H](O)CN2C(=O)[C@H]([C@@H](C)O)NC1=O,Clinical isolates,0.066 µg/mL
O=c1[nH][nH]c2c1C(c1ccc(F)cc1)CC(c1ccc3ccccc3c1)=C2,,6.25 µg/mL
O/N=C\c1cccs1,,3930 µM
CCOC(=O)C1C(=O)C=C(c2ccccc2)CC1c1ccc(C2CC(c3ccccc3)=CC(=O)C2C(=O)OCC)cc1,Clinical isolate,200 µg/mL
CC(C)c1cccc(-c2nc3[n+]([nH]2)CCN([C@H](C)[C@](O)(C[n+]2cnc[nH]2)c2ccc(F)cc2F)C3)c1,537,0.125 µg/mL

Repeating the final 2 entries:

{"structure": "CCOC(=O)C1C(=O)C=C(c2ccccc2)CC1c1ccc(C2CC(c3ccccc3)=CC(=O)C2C(=O)OCC)cc1", "strain": "Clinical isolate", "value": "200 µg/mL"}
{"structure": "CC(C)c1cccc(-c2nc3[n+]([nH]2)CCN([C@H](C)[C@](O)(C[n+]2cnc[nH]2)c2ccc(F)cc2F)C3)c1", "strain": "537", "value": "0.125 µg/mL"}

An empty or dashed field is not shown.